Anti-infective test results gathered from many reports (values: NIAID ChemDB through PubChem).

All rows: host cell toxicity; cells: CEM; endpoint: CC50

An empty or dashed field is not shown. CCn is the concentration with n% toxicity to the cells. Rows are shuffled and stem from different studies.

SMILES | method | value
O=C1CSC(c2c(F)cccc2F)N1c1cccc(Br)n1 | MTT | ≥269.4 µM
CC(C)(C)OC(=O)N[C@@H](Cc1ccccc1)[C@@H](O)C[C@H](Cc1ccccc1)NC(=O)c1ccccc1NC(=O)OCc1ccccn1 | - | >0.6 µM
O=c1[nH]c(=O)n([C@H]2C[C@H](F)[C@@H](CO)O2)cc1Cl | - | >500 µM
CCCCCCCC/C=C\CCCCCCCC(=O)OCC(COC(=O)CCCCCCC/C=C\CCCCCCCC)OC(=O)CCC(=O)O[C@H](CN1C[C@H]2CCCC[C@H]2C[C@H]1C(=O)NC(C)(C)C)[C@H](Cc1ccccc1)NC(=O)[C@H](CC(N)=O)NC(=O)c1ccc2ccccc2n1 | MTT | >100 µM
CC(C)(C)[Si](C)(C)OC[C@H]1O[C@@H](n2cnc3c(=O)[nH]cnc32)[C@H](O[Si](C)(C)C(C)(C)C)C12OS(=O)(=O)C=C2N | - | 7.7 µg/mL
Cc1c(-c2cnccn2)ssc1=S | - | >200 µM
CC(C)(C)NC(=O)[C@@H]1C[C@@H]2CCCC[C@@H]2CN1C[C@@H](O)[C@H](Cc1ccccc1)NC(=O)[C@H](CC(N)=O)NC(=O)c1ccc2ccccc2n1 | MTT | >100 µM
Cc1cc(SC2=C(O)CC(CCc3ccc(O)cc3)(C3CCCC3)OC2=O)c(C(C)(C)C)cc1OCCO | - | 78 µM
O=c1[nH]c(=O)n([C@H]2C[C@H](F)[C@@H](CO)O2)cc1I | - | >500 µM
CCCCCCCCCCCCCCCC(=O)OCC(COC(=O)CCCCCCCCCCCCCCC)OC(=O)CCC(=O)O[C@H](CN1C[C@H]2CCCC[C@H]2C[C@H]1C(=O)NC(C)(C)C)[C@H](Cc1ccccc1)NC(=O)[C@H](CC(N)=O)NC(=O)c1ccc2ccccc2n1 | MTT | >100 µM
CCn1cnc2ncn([C@@H]3O[C@H](CO[Si](C)(C)C(C)(C)C)C4(OS(=O)(=O)C=C4N)[C@H]3O[Si](C)(C)C(C)(C)C)c2c1=O | - | 98 µg/mL
CCOCn1c([Se]c2ccccc2)c(CC)c(=O)[nH]c1=O | - | >100 µM
Nc1nc2c(ncn2[C@H]2CC[C@@H](CO)O2)c(=O)o1 | - | >500 µg/mL
COCCCCCCCCCCCC(=O)O | - | 88 µM
O=C1CSC(c2c(F)cccc2F)N1c1ccncc1 | MTT | 284.4 µM
CCn1cc(C(=O)O)c(=O)c2cc(F)c(N3CCN(CC(=O)OC[C@H]4O[C@@H](n5cc(C)c(=O)[nH]c5=O)C[C@@H]4N=[N+]=[N-])CC3)cc21 | XTT | >200 µM
Cc1cn([C@H]2C[C@H](N=[N+]=[N-])[C@@H](COC(=O)[C@@]3(O)CCC4C5CCC6=CC(=O)C=CC6(C)C5C(O)CC43C)O2)c(=O)[nH]c1=O | - | >20 µM
CCCCCCCCCOCCCC(=O)O | - | 68 µM
Cc1cc(C)nc(N2C(=O)CSC2c2c(Cl)cccc2Cl)c1 | MTT | ≥283.1 µM
C[C@]1(CCP(=O)(O)O)CO[C@@H](n2cnc3c(N)ncnc32)C1 | - | 30.4 µM
CC(C)=CCN1Cc2cccc3[nH]c(=S)n(c23)C[C@@H]1C | - | 421 µM
N#C/C(=C\c1ccc(O)c(O)c1)C(=O)NCCCc1ccccc1 | - | 24.3 µM
CO[C@@H]1N([C@H]2C[C@H](F)[C@@H](CO)O2)C(=O)NC(=O)[C@@]1(C)Br | - | 9.72 µM
Cc1cn([C@H]2CC[C@@H](CO)O2)c(=O)[nH]c1=O | trypan blue | 1380 µM
CC(C)(C)[Si](C)(C)OC[C@H]1O[C@@H](n2cnc3c(N)ncnc32)[C@H](O[Si](C)(C)C(C)(C)C)C12OS(=O)(=O)C=C2N | - | 5.5 µg/mL
Cc1cc(SC2=C(O)C[C@@](CCc3ccc(N)cc3)(C(C)C)OC2=O)c(C(C)(C)C)cc1CO | - | 210 µM
N#C/C(=C\c1ccc(O)c(O)c1)C(=O)NCCCCNC(=O)/C(C#N)=C/c1ccc(O)c(O)c1 | - | 28.6 µM
O=C(OC[C@H]1O[C@@H](n2c(=S)[nH]c3cc(Cl)c(Cl)cc32)C(OC(=O)c2ccccc2)C1OC(=O)c1ccccc1)c1ccccc1 | - | >100 µM
CN(C)c1ncnc2c1ncn2[C@@H]1O[C@H](CO[Si](C)(C)C(C)(C)C)C2(OS(=O)(=O)C=C2N)[C@H]1O[Si](C)(C)C(C)(C)C | - | 6.1 µg/mL
CO[C@H]1N([C@H]2C[C@H](F)[C@@H](CO)O2)C(=O)NC(=O)[C@]1(C)Br | - | 1.72 µM
Cc1cn([C@H]2CC(SSC(Cl)(Cl)Cl)[C@@H](CO)O2)c(=O)[nH]c1=O | - | <121 µM
O=C(NNC(=O)c1ccccc1O)c1ccccc1O | - | 0.1 µM
Cc1cn([C@H]2C[C@H](N=[N+]=[N-])[C@@H](COP(=O)(OCCC#N)OC3CCC4(C)C(=CCC5C4CCC4(C)C(C(C)CCCC(C)C)CCC54)C3)O2)c(=O)[nH]c1=O | - | >200 µM
CCCCCCCCOCCCCC(=O)O | - | 48 µM
Cc1cn([C@H]2C=C[C@@H](COP3(=O)OCc4cccc(C(C)(C)C)c4O3)O2)c(=O)[nH]c1=O | - | 35 µM
N#C/C(=C\c1ccc(O)c(O)c1)C(=O)NCCCCCCNC(=O)/C(C#N)=C/c1ccc(O)c(O)c1 | - | >200 µM
C[C@]1(/C=C/P(=O)(O)O)CO[C@@H](n2cnc3c(=O)[nH]c(N)nc32)C1 | - | >100 µM
Cc1cn([C@H]2C[C@H](N=[N+]=[N-])[C@@H](CO)O2)c(=O)[nH]c1=O | - | >500 µg/mL
CCOCn1c([Se]c2ccccc2)cc(=O)[nH]c1=O | - | 120 µM
N#C/C(=C\c1ccc(O)c(O)c1)C(=O)NCc1cccc(CNC(=O)/C(C#N)=C/c2ccc(O)c(O)c2)c1 | - | 10.6 µM
Cc1c(O)cccc1C(=O)N[C@@H](Cc1ccccc1)C[C@H](O)[C@H](Cc1ccccc1)NC(=O)c1ccccc1NC(=O)OCc1ccccn1 | - | >1 µM
CC1=NN(C(=O)c2ccc(Cl)cc2)C(=O)/C1=C/c1cccc(O)c1 | - | >8 µM
Nc1nc2c(ncn2[C@@H]2C[C@H](CO)[C@@H](O)[C@H]2O)c(=O)o1 | - | >500 µg/mL
O=C(Nc1ccccc1C(=O)N[C@@H](Cc1ccccc1)[C@@H](O)[C@@H](O)[C@H](Cc1ccccc1)NC(=O)c1cccc(O)c1)OCc1ccccn1 | - | >0.9 µM
Nc1nc2c(ncn2[C@H]2C=C[C@@H](CO)C2)c(=O)o1 | - | >500 µg/mL
N#C/C(=C\c1ccc(O)c(O)c1)C(=O)NCCCCCCCCNC(=O)/C(C#N)=C/c1ccc(O)c(O)c1 | - | 13.4 µM
Cc1c(O)cccc1C(=O)N[C@@H](CSc1ccccc1)[C@H](O)CN1C[C@H]2CCCC[C@H]2C[C@H]1C(=O)NC(C)(C)C | MTT | >100 µM
CCCCCCCCCCOCCC(=O)O | - | 80 µM
Cc1cn([C@H]2C=C[C@@H](COP3(=O)OCc4cc(C=O)ccc4O3)O2)c(=O)[nH]c1=O | - | 113 µM
C[C@]1(Br)C(=O)NC(=O)N([C@H]2C[C@H](F)[C@@H](CO)O2)[C@@H]1N=[N+]=[N-] | - | 100 µM
CC1=NN(C(=O)c2ccccc2O)C(=O)/C1=C\c1ccco1 | - | 0.6 µM
Cc1cn([C@H]2C[C@H](N=[N+]=[N-])[C@@H](CO)O2)c(=O)[nH]c1=O | - | >500 µM
Cc1cc(SC2=C(O)C[C@](CCc3ccc(N)cc3)(C(C)C)OC2=O)c(C(C)(C)C)cc1CO | - | 210 µM
Fc1ccc(Cl)c(C2OCc3nc4ccccc4n32)c1 | - | 31 µM
Cc1cn([C@H]2C[C@H](Nc3n[nH]c(N)n3)[C@@H](CO)O2)c(=O)[nH]c1=O | MTT | >100 µg/mL
Fc1ccc(F)c(C2OCc3nc4ccccc4n32)c1 | - | 38 µM
CN=C1CN=C(c2ccc[nH]2)c2cc(Cl)ccc2N1 | - | 3.5 µg/mL
Cc1cn([C@H]2C=C[C@@H](CO)O2)c(=O)[nH]c1=O | - | 234 µM
Cc1cn([C@H]2C[C@H](NC(N)=O)[C@@H](CO)O2)c(=O)[nH]c1=O | MTT | >100 µg/mL
CCCCCCOCCCCCCC(=O)O | - | 60 µM
Cc1cc(SC2=C(O)C[C@@](CCc3ccc(N)cc3)(C(C)C)OC2=O)c(C(C)(C)C)cc1CO | - | >92 µM
O=[N+]([O-])c1cc(Cl)c(Cl)cc1[N+](=O)[O-] | - | >100 µM
Cc1c(O)cccc1C(=O)N[C@@H](Cc1ccccc1)[C@@H](O)[C@@H](O)[C@H](Cc1ccccc1)NC(=O)c1ccccc1NC(=O)OCc1ccccn1 | - | >0.02 µM
N#C/C(=C\c1cc(O)c(O)c(Br)c1)C(=O)NCCCNC(=O)/C(C#N)=C/c1cc(O)c(O)c(Br)c1 | - | 113 µM
O=C(Nc1ccccc1C(=O)N[C@@H](Cc1ccccc1)C[C@H](O)[C@H](Cc1ccccc1)NC(=O)OCc1cscn1)OCc1ccccn1 | - | >0.6 µM
Cc1cn([C@H]2C[C@H](N=[N+]=[N-])[C@@H](CO)O2)c(=O)[nH]c1=O | XTT | >100 µM
Cc1cn([C@H]2C[C@H](N=[N+]=[N-])[C@@H](CO)O2)c(=O)[nH]c1=O | - | 500 µM
[B-][P@](=O)(OC[C@H]1O[C@@H](n2cc(C)c(=O)[nH]c2=O)C[C@@H]1N=[N+]=[N-])OP(=O)(O)C(F)(F)P(=O)(O)O | - | >165 µM
CCCCCCCCCCCCCC(=O)OC[C@@H](COP(=O)(O)OC[C@@H]1CC[C@H](n2cc(C)c(=O)[nH]c2=O)O1)OC(=O)CCCCCCCCCCCCC | trypan blue | 820 µM

Again, the opening 8 rows:

SMILES	method	value
O=C1CSC(c2c(F)cccc2F)N1c1cccc(Br)n1	MTT	≥269.4 µM
CC(C)(C)OC(=O)N[C@@H](Cc1ccccc1)[C@@H](O)C[C@H](Cc1ccccc1)NC(=O)c1ccccc1NC(=O)OCc1ccccn1	-	>0.6 µM
O=c1[nH]c(=O)n([C@H]2C[C@H](F)[C@@H](CO)O2)cc1Cl	-	>500 µM
CCCCCCCC/C=C\CCCCCCCC(=O)OCC(COC(=O)CCCCCCC/C=C\CCCCCCCC)OC(=O)CCC(=O)O[C@H](CN1C[C@H]2CCCC[C@H]2C[C@H]1C(=O)NC(C)(C)C)[C@H](Cc1ccccc1)NC(=O)[C@H](CC(N)=O)NC(=O)c1ccc2ccccc2n1	MTT	>100 µM
CC(C)(C)[Si](C)(C)OC[C@H]1O[C@@H](n2cnc3c(=O)[nH]cnc32)[C@H](O[Si](C)(C)C(C)(C)C)C12OS(=O)(=O)C=C2N	-	7.7 µg/mL
Cc1c(-c2cnccn2)ssc1=S	-	>200 µM
CC(C)(C)NC(=O)[C@@H]1C[C@@H]2CCCC[C@@H]2CN1C[C@@H](O)[C@H](Cc1ccccc1)NC(=O)[C@H](CC(N)=O)NC(=O)c1ccc2ccccc2n1	MTT	>100 µM
Cc1cc(SC2=C(O)CC(CCc3ccc(O)cc3)(C3CCCC3)OC2=O)c(C(C)(C)C)cc1OCCO	-	78 µM